Results of unrelated studies side by side (data: NIAID ChemDB).

Common to all: growth or infection tests; organism: HIV-1; cell line: CEM + CEM-SS; endpoint: EC50

ECn is the concentration giving n% inhibition of infection, replication or growth.

| SMILES | strain or isolate | changes | read by | result |
|---|---|---|---|---|
| CC(C)=CCOc1cc(NC(=S)c2ccsc2C)ccc1Cl | Costatolide-resistant (RT L100I T139I) | RT-L100I T139I | XTT | 0.08 µM |
| COc1ccc(S(=O)(=O)c2ccccc2[N+](=O)[O-])cc1 | RF | - | cytopathic effect / XTT | 22 µM |
| O=S1C[C@@H](O)[C@H](O)CS1 | RF | - | cytopathic effect / XTT | >59.3 µM |
| CC(C)c1cc(=O)oc2c3c(c4c(c12)OC(C)(C)C=C4)OC(C)C(C)C3=O | IIIB | - | - | 0.51 µM |
| CCc1c([Se]c2cccc(C)c2)n(COCCO)c(=S)[nH]c1=O | RF | - | cytopathic effect / XTT | 0.11 µM |
| O[C@@H]1CSSC[C@H]1O | RF | - | cytopathic effect / XTT | >200 µM |
| CCOCn1c([Se]c2cc(C)cc(C)c2)c(C(C)C)c(=O)[nH]c1=S | RF | - | cytopathic effect / XTT | 0.027 µM |
| CC(=O)O[C@H]1CSSC[C@H]1OC(C)=O | RF | - | cytopathic effect / XTT | >200 µM |
| CCCc1cc(=O)oc2c3c(c4c(c12)OC(C)(C)C=C4)O[C@H](C)[C@@H](C)[C@@H]3O | IIIB | - | XTT | 0.1 µM |
| O=S(=O)(c1ccccc1)c1ccccc1 | RF | - | cytopathic effect / XTT | 49 µM |
| CC(C)c1cc(=O)oc2c3c(c4c(c12)OC(C)(C)C=C4)O[C@@H](C)[C@H](C)[C@@H]3S | RF | - | - | 8.4 µM |
| Cc1cn([C@H]2C[C@H](N=[N+]=[N-])[C@@H](CO)O2)c(=O)[nH]c1=O | G | - | cytopathic effect / MTT | 0.006 µM |
| Cc1ccnc2c1NC(=O)c1cccnc1N2C1CC1 | NL4-3 | RT-K101E | cytopathic effect / XTT | 0.3 µM |
| CCOCn1c([Se]c2cccc(C)c2)c(CC)c(=O)[nH]c1=O | RF | - | cytopathic effect / XTT | 0.027 µM |
| Cc1cn([C@H]2C[C@H](N=[N+]=[N-])[C@@H](CO)O2)c(=O)[nH]c1=O | IIIB | - | XTT | 0.005 µM |
| O=[N+]([O-])c1ccccc1S(=O)(=O)c1ccccc1 | KELL | - | - | 4.6 µM |
| CCCc1cc(=O)oc2c3c(c4c(c12)OC(C)(C)C=C4)OC(C)(C)[C@H](C)C3=O | IIIB | - | cytopathic effect / MTT | >21 µM |
| O=[N+]([O-])c1cc(S(=O)(=O)c2ccc(F)c([N+](=O)[O-])c2)ccc1F | RF | - | XTT | >100 µg/mL |
| CC(C)c1c([Se]c2ccccc2)n(COCCO)c(=S)[nH]c1=O | RF | - | cytopathic effect / XTT | 0.093 µM |
| O=C(NCCc1c[nH]c2ccccc12)C1=Cc2ccncc2CC1 | RF | - | cytopathic effect / MTT | >51 µM |
| Cc1cccc([Se]c2c(C(C)C)c(=O)[nH]c(=S)n2COCCO)c1 | RF | - | cytopathic effect / XTT | 0.054 µM |
| CC(=O)O[C@H]1CSS(=O)(=O)C[C@H]1OC(C)=O | RF | - | cytopathic effect / XTT | >9.2 µM |
| CCCCCCCCCCCCSCC(COP(=O)([O-])OCC[N+](C)(C)C)OCCCCCCCCC(=O)OCC(=O)OC[C@H]1O[C@@H](n2cc(C)c(=O)[nH]c2=O)C[C@@H]1N=[N+]=[N-] | R5X4 WT | - | plaque count | 0.05 µM |
| CCCc1cc(=O)oc2c3c(c4c(c12)OC(C)(C)C=C4)O[C@H](C)[C@@H](C)/C3=N/O | IIIB | - | cytopathic effect / MTT | >15.8 µM |
| O=S(=O)(c1ccc(I)cc1)c1ccc(I)cc1 | RF | - | XTT | >100 µg/mL |
| CCc1c(C(=O)c2cc(C)cc(C)c2)n(CC2CC=CC2)c(=O)[nH]c1=O | NL4-3 | RT-A98G | cytopathic effect / XTT | 0.0006 µM |
| CC(C)c1cc(=O)oc2c3c(c4c(c12)OC(C)(C)C=C4)O[C@H](C)[C@@H](C)C3=O | SKI | - | - | 3.41 µM |
| O=C1OC(=O)c2cc(S(=O)(=O)c3ccc4c(c3)C(=O)OC4=O)ccc21 | RF | - | XTT | >100 µg/mL |
| CCCc1cc(=O)oc2c3c(c4c(c12)OC(C)(C)C=C4)O[C@@H](C)[C@H](C)[C@@H]3O | NL4-3 | RT-T139I | XTT | 11.9 µM |
| Nc1ccccc1S(=O)(=O)c1ccccc1 | RF | - | cytopathic effect / XTT | 133 µM |
| Cc1ccnc2c1NC(=O)c1cccnc1N2C1CC1 | NL4-3(RT-4XAZT+Y181C) | RT-D67N K70R Y181C T215Y K219Q | cytopathic effect / XTT | 0.8 µM |
| O=C(O)COc1ccc(S(=O)(=O)c2ccc(OCC(=O)O)c([N+](=O)[O-])c2)cc1[N+](=O)[O-] | RF | - | XTT | >100 µg/mL |
| CCCCCCCCCCCCSCC(COP(=O)([O-])OCC[N+](C)(C)C)OCCCCCCCCO | HXB2 WT | - | plaque count | 0.05 µM |
| CC(C)c1cc(=O)oc2c3c(c4c(c12)OC(C)(C)C=C4)C[C@H](C)[C@@H](C)[C@@H]3O | SKI | - | - | 0.09 µM |
| CCCc1cc(=O)oc2c3c(c4c(c12)OC(C)(C)C=C4)O[C@@H](C)C(C)=C3 | IIIB | - | cytopathic effect / MTT | >24.7 µM |
| Nc1ccn([C@H]2CC[C@@H](CO)O2)c(=O)n1 | IIIB | - | cytopathic effect / XTT | 0.028 µM |
| Cc1cn([C@H]2C[C@H](N=[N+]=[N-])[C@@H](CO)O2)c(=O)[nH]c1=O | NL4-3 | RT-V106A | cytopathic effect / XTT | 0.004 µM |
| CC(C)c1cc(=O)oc2c3c(c4c(c12)OC(C)(C)C=C4)O[C@@H](C)[C@H](C)C3=O | RF | - | - | 15.9 µM |
| CCOCn1c([Se]c2cc(C)cc(C)c2)c(CC)c(=O)[nH]c1=S | RF | - | cytopathic effect / XTT | 0.012 µM |
| COc1ccc2c(c1)C1(c3ccccc3)SCCN1C2=O | IIIB | - | cytopathic effect / MTT | 1.18 µM |
| O=[N+]([O-])c1ccccc1Sc1ccccc1[N+](=O)[O-] | RF | - | cytopathic effect / XTT | 5.7 µM |

The first 5 rows once more:

CC(C)=CCOc1cc(NC(=S)c2ccsc2C)ccc1Cl ; strain or isolate: Costatolide-resistant (RT L100I T139I) ; changes: RT-L100I T139I ; read by: XTT ; result: 0.08 µM
COc1ccc(S(=O)(=O)c2ccccc2[N+](=O)[O-])cc1 ; strain or isolate: RF ; read by: cytopathic effect / XTT ; result: 22 µM
O=S1C[C@@H](O)[C@H](O)CS1 ; strain or isolate: RF ; read by: cytopathic effect / XTT ; result: >59.3 µM
CC(C)c1cc(=O)oc2c3c(c4c(c12)OC(C)(C)C=C4)OC(C)C(C)C3=O ; strain or isolate: IIIB ; result: 0.51 µM
CCc1c([Se]c2cccc(C)c2)n(COCCO)c(=S)[nH]c1=O ; strain or isolate: RF ; read by: cytopathic effect / XTT ; result: 0.11 µM

Blank or dashed fields: not listed here. Conditions beyond the fields shown may differ between rows.